A mixed list of measured activities; the numbers were collected in NIAID ChemDB.

ICn: concentration for n% inhibition. A number after MIC or MFC names an inhibition level or a share of isolates. Rows are shuffled and stem from different studies. ECn: concentration that inhibits the pathogen or its effect by n%. Percent inhibition refers to the dose given; in toxicity tests it is the harm to the cells. Fold resistance has wild type as its base.

C#CC[C@@H](C(=O)N[C@H](/C=C/C(=O)OCC)C[C@@H]1CCNC1=O)n1cccc(NC(=O)c2cc(C)on2)c1=O ; kind: culture ; agent: Rhinovirus ; strain: Serotype 39 ; cells: H1-HELA ; read by: cytopathic effect / XTT ; read-out: EC50 ; result: 0.043 µM
Nc1nc2c(ncn2[C@H]2CC[C@@H](COP(=O)(O)OP(=O)(O)OP(=O)(O)O)O2)c(=O)[nH]1 ; kind: target ; agent: HIV ; changes: RT-N137Q ; target: Reverse transcriptase ; read by: nucleotide incorporation / radiometric ; read-out: fold resistance ; result: 10
CCOC(=O)Nc1cc2oc(=O)c(-c3ccccc3)nc2c(N)n1 ; kind: culture ; agent: Encephalitozoon intestinalis ; cells: RK-13 ; read-out: inhibition ; tested at: 0.001 µg/mL ; result: 11.1%
CCO/N=C/c1ccc(OCCC2CCN(c3ccc(C)nn3)CC2)cc1 ; kind: culture ; agent: Rhinovirus ; strain: FO2-2513 (ICAM-1 receptor group 69) ; cells: KB ; read by: neutral red ; read-out: EC50 ; result: 0.054 µM
COC(=O)Nc1cc(N)c2c(c1)NC(=O)C(c1ccccc1)N2 ; kind: culture ; agent: Encephalitozoon intestinalis ; cells: RK-13 ; read-out: inhibition ; tested at: 0.1 µg/mL ; result: 58.6%
Cc1cn([C@@H]2O[C@H](CO[Si](C)(C)C(C)(C)C)C3(OS(=O)(=O)C=C3N)[C@H]2O[Si](C)(C)C(C)(C)C)c(=O)n(C)c1=O ; kind: target ; agent: HIV ; changes: RT-N137H ; target: Reverse transcriptase ; read by: nucleotide incorporation / radiometric ; read-out: IC50 ; result: 1 µM
O=C(Nc1nnc(NCCc2cnc[nH]2)s1)c1c(Cl)cccc1Cl ; kind: target ; agent: Human cytomegalovirus ; target: Polymerase ; read-out: inhibition ; tested at: 25 µM ; result: 65.6%
CC(=O)Oc1ccccc1C(=O)Nc1ncc([N+](=O)[O-])s1 ; kind: culture ; agent: Vittaforma corneae ; cells: RK-13 ; read-out: inhibition ; tested at: 1 µg/mL ; result: 42.3%
O=C(Nc1nnc(NCCc2c[nH]c3ccccc23)s1)c1cc(F)cc(F)c1 ; kind: target ; agent: Human cytomegalovirus ; target: Polymerase ; read-out: IC50 ; result: >25 µM
Cc1cn([C@@H]2O[C@H](CO[Si](C)(C)C(C)(C)C)[C@@]3(OS(=O)(=O)C=C3N)[C@H]2O[Si](C)(C)C(C)(C)C)c(=O)[nH]c1=O ; kind: target ; agent: HIV ; changes: RT-N137S ; target: Reverse transcriptase ; read by: nucleotide incorporation / radiometric ; read-out: IC50 ; result: 1 µM
N#Cc1ccc(C(=O)Nc2nnc(NCC(c3ccccc3)c3ccccc3)s2)cc1 ; kind: target ; agent: Human cytomegalovirus ; target: Polymerase ; read-out: IC50 ; result: <25 µM
CCOC(=O)Nc1cc2c(c(N)n1)N=C1c3ccccc3CCC1O2.Cl.Cl ; kind: culture ; agent: Encephalitozoon intestinalis ; cells: RK-13 ; read-out: inhibition ; tested at: 0.1 µg/mL ; result: 28.3%
CCOC(=O)N1CCC(Nc2nnc(NC(=O)c3c(Cl)cccc3Cl)s2)CC1 ; kind: target ; agent: Human cytomegalovirus ; target: Polymerase ; read-out: IC50 ; result: <25 µM
CC(C)=CCN1c2cc(Cl)cc3[nH]c(=S)n(c23)C[C@@H]1C ; kind: culture ; agent: HIV-1 ; changes: RT-M41L T215Y K101E ; cells: MT-4 ; read-out: EC95 ; result: 1.5 µM
CCSCCNc1nnc(NC(=O)c2ccc(C(F)(F)F)cc2)s1 ; kind: target ; agent: Human cytomegalovirus ; target: Polymerase ; read-out: IC50 ; result: >25 µM
CCOC(=O)Nc1cc2c(cn1)N=C(c1ccccc1)[C@H](C)N2 ; kind: culture ; agent: Encephalitozoon intestinalis ; cells: RK-13 ; read-out: inhibition ; tested at: 1 µg/mL ; result: 69.7%
COc1cc(C[C@H](C)[C@H](C)Cc2ccc(O)c(O)c2)ccc1O ; kind: culture ; agent: Candida albicans ; strain: CCC 130-2000 ; read by: broth dilution ; read-out: MIC80 ; result: 125 µg/mL
CC(C)(C)CNc1nnc(NC(=O)c2c(Cl)cccc2Cl)s1 ; kind: target ; agent: Human cytomegalovirus ; target: Polymerase ; read-out: IC50 ; result: >25 µM